System: purified IgGs from human sera
Experiment: Ribosome display screening with purified human IgGs
Format: binding
Conditions: for No. of selected clones per ORF and screen: D: Ribosome display: D; for Location of identified Immunogenic region: identified by ribosome display (screen D)
[1] = LSA250/1 library with IC sera (1686)

Molecule	No. of selected clones per ORF and screen (screen D: ribosome display, LSA250/1 library with IC sera (1686))	No. of selected clones per ORF and screen: D [1]	Location of identified Immunogenic region
Conserved hypothetical protein [compound 2815]	D: 21	–	–
CRF1145 (protein) ASHFSFHLIQYKQIILNIFRSTVASILLFFCLLFMIYFRTVKFFLNFLIINDFCFYMAFNRKRHILSFLK	–	D: 28	aa 16-32
ORF2780 (protein, listed as Staphylococcus aureus) MKKQVIISGLMLFSLFFGAGNLIFPPMLGHTAGQNMWIGMLGFALTGILLPFITVIVVAFYDEGVESVGNRIHPWFGFIFAVVIYMSIGAFYGIPRAANVAYEIGTRHILPVHNQWTLIIFAAIFFAIVYWISLNPSKIVDNLGKLLTPLLLLMVALLSIAVIFNPESALSAPKDKYITHPFISGSLEGYFTMDLVAALAFSVVIVNGYKFKGLTDRMKILKYVCFSGLIAAILLGMIYFALAYVGASTAPGNFKDGTDILTYNSLRLFGSFGNLVFGMTVILACLTTCIGLVNACATFTKKHVPKFSYKIFALIFSIIGFLFTTLGLEMILKIAVPLLTLIYPVSIALVLISFANMFSTFRFSWAYRLATVITLIISILQILNSFNLLHGVILKSFMMLPLADIDLAWLVPFMLFAIIGFIIDVFIRRPKQATT	–	D: 3	aa 26-40
CRFA002 (protein) CAIIPPIEGPNPSPKATIDPIKPKALPCFFLVIFLATTTIISEGNAADPTPCTNLPKIKIKK	–	D: 3	aa 38-55
ORF2553 (protein, listed as Staphylococcus aureus) MNKVIKMLVVTLAFLLVLAGCSGNSNKQSSDNKDKETTSIKHAMGTTEIKGKPKRVVTLYQGATDVAVSLGVKPVGAVESWTQKPKFEYIKNDLKDTKIVGQEPAPNLEEISKLKPDLIVASKVRNEKVYDQLSKIAPTVSTDTVFKFKDTTKLMGKALGKEKEAEDLLKKYDDKVAAFQKDAKAKYKDAWPLKASVVNFRADHTRIYAGGYAGEILNDLGFKRNKDLQKQVDNGKDIIQLTSKESIPLMNADHIFVVKSDPNAKDAALVKKTESEWTSSKEWKNLDAVKNNQVSDDLDEITWNLAGGYKSSLKLIDDLYEKLNIEKQSK	–	D: 3	aa 1-22
ORF2610 (protein, listed as Staphylococcus aureus) MKRLFDVVSSIYGLVVLSPILLITALLIKMESPGPAIFKQKRPTINNELFNIYKFRSMKIDTPNVATDLMDSTSYITKTGKVIRKTSIDELPQLLNVLKGEMSIVGPRPALYNQYELIEKRTKANVHTIRPGVTGLAQVMGRDDITDDQKVAYDHYYLTHQSMMLDMYIIYKTIKNIVTSEGVHH	–	D: 13	aa 114-141
ORF1523 (protein, listed as Staphylococcus aureus) MSVEIESIEHELEESIASLRQAGVRITPQRQAILRYLISSHTHPTADEIYQALSPDFPNISVATIYNNLRVFKDIGIVKELTYGDSSSRFDFNTHNHYHIICEQCGKIVDFQYPQLNEIERLAQHMTDFDVTHHRMEIYGVCKECQDK	–	D: 3	aa 120-135
ORF2192 (protein, listed as Staphylococcus aureus) MMYGYPEKWLEGMTTGEGIAAELRLGIVNGHIAEGTLLTENQMAKQFNVSRSPIRDAFKLLQQNQLIQLERMGAHVLPFGEQEKKEMYDLRLMLESFAFSRVKNQERLPIVKEMKKQLEMMKVAVKFEDAESFTKHDFEFHETLIKASNHQYLNSFWSHLKPVMMALVLTSMRQRMQQNPQDFERIHHNHQVFIDAVEQYDSQILKEAFHLNFDDVGKDIEGFWLN	–	D: 3	aa 15-35
CRF1783 (protein) CRINTAFTSIASIWILSLCVCCYRCCWLRCCWSIRWLCLICRCCIIIRCCLVISLTCLVCRCCLISRLCLCSVIRISLITLSSWLCIWLCCSSCWISLSTLVCWLYCWLSLVGRCSWLCCRISLSTSICVRLCIGISWLCWLILCRLILLCCRRCCRVSRYKSNSGN	–	D: 5	aa 76-127

Reference: patent US7968297B2, “Method for identification, isolation and production of antigens to a specific pathogen” (Intercell AG, priority 2001, dated 2011)
